# Measured values from paper PMC12825925, “A novel highly antifungal compound ZJS-178 targeting myosin I inhibits the endocytosis and mycotoxin biosynthesis of Fusarium graminearum” (2024).
# Amino acid sequences for entries named in this document (tags omitted). Residues count along the entry.
# UniProt I1RCT2, 1-1214: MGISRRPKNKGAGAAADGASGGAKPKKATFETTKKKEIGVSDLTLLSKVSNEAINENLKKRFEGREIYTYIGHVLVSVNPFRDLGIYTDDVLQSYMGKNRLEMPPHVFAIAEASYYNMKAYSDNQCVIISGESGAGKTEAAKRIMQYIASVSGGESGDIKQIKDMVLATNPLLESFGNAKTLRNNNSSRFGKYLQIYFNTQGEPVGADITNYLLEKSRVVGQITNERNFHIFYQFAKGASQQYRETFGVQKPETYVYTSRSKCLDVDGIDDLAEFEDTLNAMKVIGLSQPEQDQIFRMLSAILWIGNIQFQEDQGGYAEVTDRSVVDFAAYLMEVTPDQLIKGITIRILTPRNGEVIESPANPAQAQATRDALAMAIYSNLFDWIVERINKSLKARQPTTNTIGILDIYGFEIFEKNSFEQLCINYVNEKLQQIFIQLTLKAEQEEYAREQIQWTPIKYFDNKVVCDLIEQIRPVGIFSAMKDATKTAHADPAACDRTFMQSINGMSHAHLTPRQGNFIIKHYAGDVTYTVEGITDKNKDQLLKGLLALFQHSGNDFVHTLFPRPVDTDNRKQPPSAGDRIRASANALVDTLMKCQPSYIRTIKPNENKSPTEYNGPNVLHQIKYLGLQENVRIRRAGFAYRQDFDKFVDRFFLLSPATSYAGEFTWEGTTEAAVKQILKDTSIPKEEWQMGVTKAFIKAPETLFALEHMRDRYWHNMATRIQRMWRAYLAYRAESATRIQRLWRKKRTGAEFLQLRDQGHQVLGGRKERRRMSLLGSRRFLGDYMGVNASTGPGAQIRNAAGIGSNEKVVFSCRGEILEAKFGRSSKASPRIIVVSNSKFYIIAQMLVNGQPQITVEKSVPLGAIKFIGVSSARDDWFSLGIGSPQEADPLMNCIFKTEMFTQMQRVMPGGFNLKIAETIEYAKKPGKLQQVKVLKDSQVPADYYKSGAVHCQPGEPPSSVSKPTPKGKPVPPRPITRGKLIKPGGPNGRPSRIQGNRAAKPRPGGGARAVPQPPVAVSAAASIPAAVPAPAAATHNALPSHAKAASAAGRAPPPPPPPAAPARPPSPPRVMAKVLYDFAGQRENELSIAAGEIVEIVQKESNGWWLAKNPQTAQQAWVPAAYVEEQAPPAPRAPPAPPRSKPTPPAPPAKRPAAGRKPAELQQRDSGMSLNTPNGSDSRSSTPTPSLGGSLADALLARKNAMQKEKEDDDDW
# UniProt I1RCT2, 1-757 limits assumed: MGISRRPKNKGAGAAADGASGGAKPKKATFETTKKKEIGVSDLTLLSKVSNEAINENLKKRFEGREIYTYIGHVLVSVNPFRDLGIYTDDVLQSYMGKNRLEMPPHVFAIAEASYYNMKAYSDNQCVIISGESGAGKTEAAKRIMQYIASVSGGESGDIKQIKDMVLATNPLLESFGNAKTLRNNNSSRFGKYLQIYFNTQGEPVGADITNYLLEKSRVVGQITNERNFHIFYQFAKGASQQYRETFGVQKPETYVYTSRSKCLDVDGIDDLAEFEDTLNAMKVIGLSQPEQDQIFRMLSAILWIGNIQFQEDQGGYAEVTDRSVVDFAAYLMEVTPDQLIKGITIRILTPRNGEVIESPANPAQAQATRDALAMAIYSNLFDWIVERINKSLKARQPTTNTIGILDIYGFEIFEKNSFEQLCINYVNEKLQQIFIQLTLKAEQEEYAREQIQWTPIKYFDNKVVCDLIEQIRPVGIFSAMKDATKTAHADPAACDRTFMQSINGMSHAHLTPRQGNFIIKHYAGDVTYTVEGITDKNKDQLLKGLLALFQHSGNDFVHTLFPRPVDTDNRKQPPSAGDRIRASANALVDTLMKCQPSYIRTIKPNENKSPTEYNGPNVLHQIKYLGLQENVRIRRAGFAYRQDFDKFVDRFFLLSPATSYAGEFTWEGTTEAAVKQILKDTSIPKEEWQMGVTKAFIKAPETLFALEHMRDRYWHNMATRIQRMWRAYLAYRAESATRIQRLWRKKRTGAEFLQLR
# Columns and labels:
# Settings in all cases: read-out: IC50 of ZJS-178 [μM]*
# myosin I (FgMyoI) [1] = biological target: myosin I (FgMyoI) (Fusarium graminearum, UniProt I1RCT2); assay: actin-activated ATPase assay with protein purified from Sf9 cells, […] actin
# myosin I (FgMyoI) [2] = biological target: myosin I (FgMyoI) (Fusarium graminearum, UniProt I1RCT2, M375A)
# myosin I (FgMyoI) [3] = biological target: myosin I (FgMyoI) (Fusarium graminearum, UniProt I1RCT2, S217A)
smiles,measurement,setting,value
CCOC(=O)/C(C#N)=C(\N)c1ccc(N(C)CC)cc1,IC50,myosin I (FgMyoI) [1],0.035 µM
same,IC50,myosin I (FgMyoI) [2],0.0428 µM
same,IC50,myosin I (FgMyoI) [3],0.19 µM
